Results of unrelated studies side by side (data: NIAID ChemDB).

Common to all: enzyme or target tests; agent: HIV-1; target: Tat:TAR/LTR; read-out: IC50

ICn: concentration for n% inhibition. Neighbouring rows are from separate reports.

{"SMILES": "CCSc1ccc2c(c1)N(CCCN1CCN(C)CC1)c1ccccc1S2", "method": "gel", "result": ">10 µM"}
{"SMILES": "C[C@@H](CN[C@H](CN[C@H](CN[C@H](CNCCC(N)=O)Cc1ccc(O)cc1)Cc1ccc(O)cc1)Cc1ccc(O)cc1)NC[C@H](Cc1ccc(O)cc1)NC[C@H](Cc1ccc(O)cc1)NC[C@H](Cc1ccc(O)cc1)NC[C@@H](N)Cc1ccc(O)cc1", "method": "luciferase", "result": "0.2 µM"}
{"SMILES": "CN1CCN(c2ccc3nc(-c4ccc5nc(-c6ccc(OCc7cn(C[C@H]8O[C@@H](O[C@@H]9[C@@H](O)[C@H](N)C[C@H](N)[C@H]9O[C@H]9O[C@H](CN)[C@@H](O)[C@H](O)[C@H]9N)[C@H](O)[C@@H]8O[C@H]8O[C@@H](CN)[C@@H](O)[C@H](O)[C@H]8N)nn7)cc6)[nH]c5c4)[nH]c3c2)CC1", "method": "FRET / binding", "result": "0.251 µM"}
{"SMILES": "NCCCC[C@@H](CN[C@H](CN[C@H](CN[C@H](CNCCC(N)=O)Cc1ccc(O)cc1)Cc1ccc(O)cc1)Cc1ccc(O)cc1)NC[C@H](Cc1ccc(O)cc1)NC[C@@H](N)Cc1ccc(O)cc1", "method": "luciferase", "result": "0.5 µM"}
{"SMILES": "CC(=O)NCCN(CCC(=O)NCCN(CCC(=O)NCCN(CCC(=O)NCCN(CCC(=O)NCCN(CCC(=O)NCCC(N)=O)C(=O)[C@@H](N)Cc1ccccc1)C(=O)[C@@H](N)CCCN=C(N)N)C(=O)[C@@H](N)Cc1ccccc1)C(=O)[C@@H](N)Cc1ccccc1)C(=O)[C@@H](N)CCCN=C(N)N", "method": "FRET / fluorescence", "result": ">2 µM"}
{"SMILES": "CN(C)CCCN1c2ccccc2Sc2ccc(Cl)cc21", "method": "FRET", "result": "500 µM"}
{"SMILES": "NCCCC[C@@H](CN[C@H](CNCCC(N)=O)Cc1ccc(O)cc1)NC[C@H](Cc1ccc(O)cc1)NC[C@H](CCCCN)NC[C@H](Cc1c[nH]c2ccccc12)NC[C@@H](N)Cc1ccc(O)cc1", "method": "luciferase", "result": "0.2 µM"}
{"SMILES": "CC(=O)c1ccc2c(c1)N(CCCN(C)C)c1ccccc1S2", "method": "FRET", "result": "500 µM"}
{"SMILES": "N#Cc1ccc([N+](=O)[O-])c(NCCC[NH3+])c1", "method": "ELISA", "result": "63.4 µM"}
{"SMILES": "COc1ccc2nc3cc(Cl)ccc3c(NCCCCN(CCCN)CCCN)c2c1", "method": "gel", "result": "0.083 µM"}
{"SMILES": "NCC1O[C@H](O[C@H]2C(N)C[C@@H](N)C(O)[C@H]2O[C@@H]2O[C@H](Cn3cc(CNC(=O)[C@@H](N)c4cnc[nH]4)nn3)[C@H](O[C@H]3O[C@@H](CN)[C@@H](O)C(O)C3N)C2O)C(N)[C@@H](O)[C@@H]1O", "method": "RNase H / fluorescence", "result": "0.461 µM"}
{"SMILES": "COc1ccc2nc3cc(Cl)ccc3c(NCCCN(CCCN)CCCCN)c2c1", "method": "gel", "result": "0.022 µM"}
{"SMILES": "CC(=O)NCCN(CCC(=O)NCCN(CCC(=O)NCCN(CCC(=O)NCCN(CCC(=O)NCCN(CCC(=O)NCCC(N)=O)C(=O)[C@@H](N)Cc1ccccc1)C(=O)[C@@H](N)CCCN=C(N)N)C(=O)[C@@H](N)Cc1ccccc1)C(=O)[C@@H](N)CCCN=C(N)N)C(=O)[C@@H](N)CCCCN", "method": "FRET / fluorescence", "result": "0.0347 µM"}
{"SMILES": "NCCCN(CCCN)CCCNc1c2ccccc2nc2ccccc12", "method": "gel", "result": "0.031 µM"}
{"SMILES": "CC(=O)NCCN(CCC(=O)NCCN(CCC(=O)NCCN(CCC(=O)NCCN(CCC(=O)NCCN(CCC(=O)NCCC(N)=O)C(=O)[C@@H](N)Cc1ccccc1)C(=O)[C@@H](N)CCCN=C(N)N)C(=O)[C@@H](N)Cc1ccccc1)C(=O)[C@@H](N)CCCCN)C(=O)[C@@H](N)CCCN=C(N)N", "method": "FRET / fluorescence", "result": "0.362 µM"}
{"SMILES": "COc1ccc2nc3cc(Cl)ccc3c(NCc3ccc(CN(CCCN)CCCCN)cc3)c2c1", "method": "gel", "result": ">1 µM"}
{"SMILES": "NCCCC[C@@H](CN[C@H](CNCCC(N)=O)Cc1ccc(O)cc1)NC[C@H](Cc1ccc(O)cc1)NC[C@H](CCCCN)NC[C@H](Cc1ccc(O)cc1)NC[C@@H](N)Cc1ccc(O)cc1", "method": "luciferase", "result": "0.4 µM"}